Laboratory results: PubChem BioAssay AID1259414 (Drosophila RNAi Screening Center, 2018)
Test: 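Host factors increasing or decreasing Wolbachia levels in cultured fly cells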 (primary screen). Cell system: Drosophila JW18 cells infected with Wolbachia. Reagents: long dsRNA against Drosophila genes, 0.25 µg dsRNA per well of a 384-well plate. Duration: 5 days. Treatment: cells persistently infected with Wolbachia before knock-down; no added drug. Measured: 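Automated imaging of bacterial rRNA staining divided by host cell count, reported as plate-normalised robust z-score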. Reading the numbers: Wolbachia per cell robust z: higher = more Wolbachia per host cell than the plate typical. Call rule: 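Active if absolute robust z reaches 1.5 in two or more of three replicates, leaving out multi- or no-target dsRNAs, genes unexpressed in JW18 and A1 wells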.
In all, the deposit lists about 24,000 reagents; this is a random part of those that have a named target and a result. Over the whole deposit, about 1,210 (5%) got an active call. 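Inactive calls also include excluded dsRNAs with several or no targets, genes unexpressed in JW18, and well A1, regardless of score.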 Reagents against one gene are numbered here.

CG16739 scored Wolbachia per cell robust z, rep 1 = 0.162; Wolbachia per cell robust z, rep 2 = -1.49; Wolbachia per cell robust z, rep 3 = 0.151; inactive.
Adgf-C #1 scored Wolbachia per cell robust z, rep 1 = 0.346; Wolbachia per cell robust z, rep 2 = 0.0412; Wolbachia per cell robust z, rep 3 = -2.36; inactive.
Knock-down of Adgf-C #2 came out at: Wolbachia per cell robust z, rep 1 = 0.742; Wolbachia per cell robust z, rep 2 = 0.372; Wolbachia per cell robust z, rep 3 = -2.54; inactive.
CG14194 scored Wolbachia per cell robust z, rep 1 = -0.14; Wolbachia per cell robust z, rep 2 = -1.21; Wolbachia per cell robust z, rep 3 = -0.376; inactive.
For dbe the deposit lists Wolbachia per cell robust z, rep 1 = 1.19; Wolbachia per cell robust z, rep 2 = -0.121; Wolbachia per cell robust z, rep 3 = -0.723; inactive.
After knock-down of CG11134, the record shows Wolbachia per cell robust z, rep 1 = -0.721; Wolbachia per cell robust z, rep 2 = -0.254; Wolbachia per cell robust z, rep 3 = -0.744; inactive.
CG3285 scored Wolbachia per cell robust z, rep 1 = -3.91; Wolbachia per cell robust z, rep 2 = 0.00652; Wolbachia per cell robust z, rep 3 = -0.145; inactive.
With knock-down of Grx1, the record shows Wolbachia per cell robust z, rep 1 = 0.00289; Wolbachia per cell robust z, rep 2 = 0.767; Wolbachia per cell robust z, rep 3 = 0.64; inactive.
CG11373 scored Wolbachia per cell robust z, rep 1 = -1.93; Wolbachia per cell robust z, rep 2 = 0.181; Wolbachia per cell robust z, rep 3 = -1.47; inactive.
psd #1 scored Wolbachia per cell robust z, rep 1 = -0.462; Wolbachia per cell robust z, rep 2 = -0.67; Wolbachia per cell robust z, rep 3 = 0.165; inactive.
After knock-down of psd #2, the record shows Wolbachia per cell robust z, rep 1 = -0.0809; Wolbachia per cell robust z, rep 2 = -0.242; Wolbachia per cell robust z, rep 3 = 0.368; inactive.
Depletion of CG34293 came out at: Wolbachia per cell robust z, rep 1 = 0.67; Wolbachia per cell robust z, rep 2 = -0.855; Wolbachia per cell robust z, rep 3 = -0.432; inactive.
With knock-down of atilla #1, the record shows Wolbachia per cell robust z, rep 1 = -0.662; Wolbachia per cell robust z, rep 2 = -0.117; Wolbachia per cell robust z, rep 3 = -0.346; inactive.
Depletion of atilla #2 resulted in: Wolbachia per cell robust z, rep 1 = 0.41; Wolbachia per cell robust z, rep 2 = -0.515; Wolbachia per cell robust z, rep 3 = -0.0453; inactive.
CG3473 gave Wolbachia per cell robust z, rep 1 = -2.76; Wolbachia per cell robust z, rep 2 = 0.344; Wolbachia per cell robust z, rep 3 = -0.403; inactive.
After knock-down of Dtg #1, the record shows Wolbachia per cell robust z, rep 1 = -1.97; Wolbachia per cell robust z, rep 2 = -0.188; Wolbachia per cell robust z, rep 3 = -0.487; inactive.
After knock-down of Dtg #2 the results were Wolbachia per cell robust z, rep 1 = -0.746; Wolbachia per cell robust z, rep 2 = 1.6; Wolbachia per cell robust z, rep 3 = 0.697; inactive.
Silencing of CG4239 came out at: Wolbachia per cell robust z, rep 1 = -0.139; Wolbachia per cell robust z, rep 2 = -4.46; Wolbachia per cell robust z, rep 3 = 0.324; inactive.
After knock-down of CG10907, the screen gave Wolbachia per cell robust z, rep 1 = -0.583; Wolbachia per cell robust z, rep 2 = 0.976; Wolbachia per cell robust z, rep 3 = -0.346; inactive.
Depletion of Rnf146 came out at: Wolbachia per cell robust z, rep 1 = -0.0663; Wolbachia per cell robust z, rep 2 = 0.0532; Wolbachia per cell robust z, rep 3 = 1.12; inactive.
pr scored Wolbachia per cell robust z, rep 1 = 1.29; Wolbachia per cell robust z, rep 2 = 0.623; Wolbachia per cell robust z, rep 3 = 0.424; inactive.
With knock-down of CG31715, the screen gave Wolbachia per cell robust z, rep 1 = 0.599; Wolbachia per cell robust z, rep 2 = 0.544; Wolbachia per cell robust z, rep 3 = 0.586; inactive.
CG14082 #1 showed Wolbachia per cell robust z, rep 1 = -0.492; Wolbachia per cell robust z, rep 2 = -1.18; Wolbachia per cell robust z, rep 3 = -0.114; inactive.
CG14082 #2 scored Wolbachia per cell robust z, rep 1 = 1.21; Wolbachia per cell robust z, rep 2 = -0.126; Wolbachia per cell robust z, rep 3 = 0.531; inactive.

Entries above whose target name begins with P or p (3):
psd #1 | Wolbachia per cell robust z, rep 1 = -0.462; Wolbachia per cell robust z, rep 2 = -0.67; Wolbachia per cell robust z, rep 3 = 0.165; activity call = inactive
psd #2 | Wolbachia per cell robust z, rep 1 = -0.0809; Wolbachia per cell robust z, rep 2 = -0.242; Wolbachia per cell robust z, rep 3 = 0.368; activity call = inactive
pr | Wolbachia per cell robust z, rep 1 = 1.29; Wolbachia per cell robust z, rep 2 = 0.623; Wolbachia per cell robust z, rep 3 = 0.424; activity call = inactive
